Measured values from several laboratories, pooled; numbers as filed in NIAID ChemDB.

All rows: growth or infection tests; species: Mycobacterium avium complex

ECn: concentration that inhibits the pathogen or its effect by n%.

SMILES | read by | dose | measure | strain or isolate | value
CO[C@H]1/C=C/O[C@@]2(C)Oc3c(C)c(O)c4c(O)c(c(/C=N/N5CCN(C/C=C/c6ccccc6)CC5)c(O)c4c3C2=O)NC(=O)/C(C)=C\C=C\[C@H](C)[C@H](O)[C@@H](C)[C@@H](O)[C@@H](C)[C@H](OC(C)=O)[C@@H]1C |  |  | MBC | SK-32 | 4 µg/mL
NC[C@H]1O[C@H](O[C@H]2[C@H](O)[C@@H](O[C@H]3O[C@H](CO)[C@@H](O)[C@H](N)[C@H]3O)[C@H](N)C[C@@H]2N)[C@H](O)[C@@H](O)[C@@H]1O |  |  | MIC | Isolate C-18 | 50 µg/mL
C[C@@H]1CN(c2c(F)c(N)c3c(=O)c(C(=O)O)cn(C4CC4)c3c2F)C[C@H](C)N1 | broth dilution |  | MIC | 25 | 0.12 µg/mL
NC(=O)c1cnccn1 | agar | 25 µg/mL | inhibition | 713 strains | <1%
Cc1c(F)ccc(-n2cc(C(=O)O)c(=O)c3cc(F)c(N4CC(C)NC(C)C4)cc32)c1F |  |  | MIC50 | 14 strains | ≥32 µg/mL
NC[C@@H]1O[C@H](O[C@H]2[C@@H](O)[C@H](O[C@@H]3[C@@H](O)[C@H](N)C[C@H](N)[C@H]3O[C@H]3O[C@H](CO)[C@@H](O)[C@H](O)[C@H]3N)O[C@@H]2CO)[C@H](N)[C@@H](O)[C@@H]1O |  |  | MIC | 536/HIV+ | 1.56 µg/mL
CO[C@H]1/C=C/O[C@@]2(C)Oc3c(C)c(O)c4c(O)c(c5c(c4c3C2=O)NC2(CCN(CC(C)C)CC2)N=5)=NC(=O)/C(C)=C\C=C\[C@H](C)[C@H](O)[C@@H](C)[C@@H](O)[C@@H](C)[C@H](OC(C)=O)[C@@H]1C |  |  | MBC | 1854 | 32 µg/mL
CC(C)N=c1cc2n(-c3ccc(Cl)cc3)c3ccccc3nc-2cc1Nc1ccc(Cl)cc1 |  |  | MIC | 559/HIV+ | 0.25 µg/mL
CC[C@@H](CO)NCCN[C@@H](CC)CO |  |  | MBC | 211-5 | 15 µg/mL
CCn1cc(C(=O)O)c(=O)c2cc(F)c(N3CCN4CCC3C4)nc21 |  |  | MIC50 | 14 strains | ≥32 µg/mL
Nc1ccc(C(=O)O)c(O)c1 | agar | 10 µg/mL | inhibition | 97 strains | 10%
CC1CN(c2cc3c(cc2F)c(=O)c(C(=O)O)cn3C2CC2)CCN1 |  |  | MIC50 | 14 strains | 0.5 µg/mL
CO[C@H]1/C=C/O[C@@]2(C)Oc3c(C)c(O)c4c(O)c(c(/C=N/N5CCN(C)CC5)c(O)c4c3C2=O)NC(=O)/C(C)=C\C=C\[C@H](C)[C@H](O)[C@@H](C)[C@@H](O)[C@@H](C)[C@H](OC(C)=O)[C@@H]1C |  |  | MIC50 | 26 isolates (HIV+) | 0.5 µg/mL
CC1CN(c2cc3c(cc2F)c(=O)c(C(=O)O)cn3C2CC2)CC(C)N1 |  |  | MIC50 | 14 strains | 0.5 µg/mL
O=[N+]([O-])[O][Ga]([O][N+](=O)[O-])[O][N+](=O)[O-] |  |  | EC50 | 1 | <500 µM
CC(C)N1CCN(c2cc3c(cc2F)c(=O)c(C(=O)O)cn3C2CC2)CC1 |  |  | MIC90 | 14 strains | 8 µg/mL
CC[C@@H](CO)NCCN[C@@H](CC)CO |  |  | MBC | 9141 | 60 µg/mL

A number after MIC or MFC names an inhibition level or a share of isolates. Rows are shuffled and stem from different studies. Inhibition is in % at the dose shown (toxicity tests: loss of growth or viability). An empty or dashed field is not shown.